Pooled drug test results. Numbers come from NIAID ChemDB, via PubChem.

Shared fields: growth or infection tests; organism: Candida albicans; read-out: MIC

Blank or dashed fields: not listed here. Two numbers with a dash give a range or band. Conditions beyond the fields shown may differ between rows.

structure,strain or isolate,method,value
Cc1ccc(N=c2scc(-c3ccccc3)n2CCn2c([N+](=O)[O-])cnc2C)cc1,,,250 µg/mL
Cc1c(O)cccc1C(=O)N[C@@H](CSc1ccccc1)[C@H](O)CN1C[C@H]2CCCC[C@H]2C[C@H]1C(=O)NC(C)(C)C,I127A,,64 µg/mL
CCCCNc1nnc(Cn2c(C)nc3ccccc32)o1,NCTC 5310,,<100 µg/mL
C[C@@H](c1ncncc1F)[C@](O)(Cn1cncn1)c1ccc(F)cc1F,ATCC 90028,,0.125 µg/mL
Cc1ncc([N+](=O)[O-])n1CCN1C(=O)/C(=C/c2cccc(Cl)c2)N=C1c1ccccc1,,,125 µg/mL
C(=C/COc1ccc(C2=NCCN2)cc1)/COc1ccc(C2=NCCN2)cc1,B311,,6.25 µg/mL
CSc1nc(C)nc2c1sc(=S)n2-c1ccccc1,DSM 70443,,>200 µg/mL
CCCCCCCCCCCC[n+]1cccc(/C=C/C(=O)c2cccc(OC)c2)c1,,,<6.8 µg/mL
N=C(N)c1ccc(OC/C=C\COc2ccc(C(=N)N)cc2)cc1,B311,,3.12 µg/mL
C[C@@H](SC1COC(/C=C/C=C/c2ccc(C#N)cc2F)OC1)[C@](O)(Cn1cncn1)c1ccc(F)cc1F,CAL-0015,,0.03 µg/mL
CCC(C)CC(C)CCCCCCCCC(=O)N[C@H]1C[C@@H](O)[C@H](NCCN)NC(=O)[C@@H]2[C@@H](O)CCN2C(=O)[C@H]([C@H](O)CCN)NC(=O)[C@H]([C@H](O)[C@@H](O)c2ccc(O)cc2)NC(=O)[C@@H]2C[C@@H](O)CN2C(=O)[C@H]([C@@H](C)O)NC1=O,NR3,,4 µg/mL
Cn1c(=O)c(-c2[nH][nH]c(=O)c2/C=N/c2ccccn2)c(O)c2ccccc21,ATCC 10231,,50 µg/mL
CCOC(=O)C1C(=O)C=C(c2ccccc2)CC1c1ccc(C2CC(c3ccccc3)=CC(=O)C2C(=O)OCC)cc1,Clinical isolate,,12.5 µg/mL
COc1ccc2c(c1)CCN1C(NCCCCCC=C(C)C)NCCC21,NFI0124,,64 µg/mL
COc1cccc(/C=c2\c(=O)[nH][nH]\c2=C2/C(=O)c3ccccc3N(C)C2=O)c1,ATCC 10231,,>100 µg/mL
C=C1/C=C(\CO)[C@H](CC)OC(=O)[C@H](C)C(=O)C(O)(CO)C/C(C)=C/[C@@H](C)C1,MY1055,,>200 µg/mL
COC(=O)c1cc2ccccc2cc1-c1n[nH]c(=S)n1Cc1ccccc1,ATCC 2091,,250 µg/mL
Clc1ccc(C(COc2ccc(Br)cc2)Cn2ccnc2)c(Cl)c1,,,100 µg/mL
CCOC(=O)C1C(=O)C=C(c2ccc(C)cc2)CC1c1ccc(C2CC(c3ccc(C)cc3)=CC(=O)C2C(=O)OCC)cc1,Clinical isolate,,25 µg/mL
C=C(CCCCCNC1NCCC2c3ccccc3CCN12)C(C)C,NFI2103,,16 µg/mL
CCOC(=O)c1csc(NC(=O)CSc2nnc(C(C)Oc3ccc(C)cc3)n2-c2ccccc2)n1,Clinical isolates,,16 µg/mL
COc1cc([C@H]2COc3c(ccc(O)c3OC)C2)c(OC)c(OC)c1OC,,,>200 µg/mL
CC(=O)c1ccc2c(c1)N(C(=O)CN1C(=O)CCC1=O)c1ccccc1S2,NCIM no 300,,>50 µg/mL
Cc1ncc([N+](=O)[O-])n1CCN1C(=O)S/C(=C/c2cccs2)C1=O,,,125 µg/mL
CCOC(=O)c1oc2cccc(OCCCNCc3cccnc3)c2c1C,,,1.6 µg/mL
Cc1nc(NC2CC2)c2sc(=S)n(-c3ccccc3)c2n1,DSM 70443,,80 µg/mL
Cc1ncc([N+](=O)[O-])n1CCn1c(-c2ccccc2)csc1=Nc1ccccc1,,,250 µg/mL
CCOC(=O)C1C(=O)C=C(c2ccc(OC)cc2)CC1c1ccc(C2CC(c3ccc(OC)cc3)=CC(=O)C2C(=O)OCC)cc1,Clinical isolate,,12.5 µg/mL
O=c1[nH]c2cc(F)c(F)cc2nc1CBr,ATCC 90029,,15.6–62.5 µg/mL
CCCCCCCCCCCC[n+]1ccc(/C=C/C(=O)c2cccc(OC)c2)cc1,,,<7.65 µg/mL
O=c1[nH]c2ccc(C(F)(F)F)cc2nc1C(F)(F)F,ATCC 90029,,8 µg/mL
CC(C)CCCCCCNC1NCCC2c3ccccc3CCN12,NFI2103,,8 µg/mL
Clc1ccc(C(CCCOc2ccccc2)Cn2ccnc2)c(Cl)c1,,,>100 µg/mL
Oc1cc2ccccc2cc1-c1nnc(NCc2ccccc2)s1,ATCC 2091,,125 µg/mL
CCCCCCCC/C=C\CCCCCCCC(=O)N[C@H](C(=O)N1C[C@H](C)C[C@H]1C(=O)N[C@H](C(=O)N[C@@H](CCO)C(=O)N[C@@H](C)C=O)C(C)C)[C@@H](C)O,MY1055,broth dilution / visual reading,2 µg/mL
COc1ccccc1/C=c1\c(=O)[nH][nH]\c1=C1/C(=O)c2ccccc2N(C)C1=O,ATCC 10231,,>100 µg/mL
Cc1ncc([N+](=O)[O-])n1CCNC(=S)Nc1ccc(CO)cc1,,,250 µg/mL
O=C(NNC(=S)Nc1ccc(F)cc1)c1cc2ccccc2cc1O,ATCC 2091,,250 µg/mL
CN(C)C(=O)c1ccc2nc(NC(=O)CC3CCC[C@@H](NCc4ccc5ccccc5c4)C3)sc2c1,,,3.1 µg/mL
Cn1c(=O)c(-c2[nH][nH]c(=O)c2C=Nc2cccnc2)c(O)c2ccccc21,ATCC 10231,,25 µg/mL
O=C(NNC(=S)NCc1ccccc1)c1cc2ccccc2cc1O,ATCC 2091,,250 µg/mL
CCC(C)n1ncn(-c2ccc(N3CCN(c4ccc(OC[C@H]5CO[C@](Cn6cncn6)(c6ccc(Cl)cc6Cl)O5)cc4)CC3)cc2)c1=O,Isolate 95-145,,0.25 µg/mL
CN1C(=O)/C(=c2/[nH][nH]c(=O)/c2=C\c2ccc(N)cc2)C(=O)c2ccccc21,ATCC 10231,,>100 µg/mL
Cc1nc(N=[N+]=[N-])c2sc(=S)n(-c3ccccc3)c2n1,DSM 70443,,>200 µg/mL
CCOC(=O)Cc1csc(NC(=O)CSc2nnc(C(C)Oc3ccc(C)cc3)n2C2CCCCC2)n1,NRRL Y-27077,,>16 µg/mL
COc1ccc(C2NC(=O)Nc3n[nH]c(C(C)C)c32)cc1OC,ATCC 10231,agar diffusion,312.5 µg/mL
COc1cccc(C(=O)/C=C/c2cccnc2)c1,,,37.8 µg/mL
O=c1[nH][nH]c2c1C(c1ccccc1)CC(c1ccc3ccccc3c1)=C2,,,50 µg/mL
COc1ccc(/C=c2\c(=O)[nH][nH]\c2=C2/C(=O)c3ccccc3N(C)C2=O)cc1,ATCC 10231,,>100 µg/mL
CCCCCCCCCC[n+]1cccc(/C=C/C(=O)c2ccc(OC)cc2)c1,,,<6.8 µg/mL
O=c1[nH][nH]c2c1C(c1ccc(Cl)cc1)CC(c1ccc3ccccc3c1)=C2,,,6.25 µg/mL
Cn1c(=O)c(-c2[nH][nH]c(=O)c2N=Nc2ccccc2Cl)c(O)c2ccccc21,ATCC 10231,,50 µg/mL
COc1ccc(OCCCC(Cn2ccnc2)c2ccc(Cl)cc2Cl)cc1,,,10 µg/mL
Cc1nc(=S)c2sc(=S)n(-c3ccccc3)c2[nH]1,DSM 70443,,80 µg/mL
CCOC(=O)Cc1csc(NC(=O)CSc2nnc(C(C)Oc3ccc(Cl)cc3)n2-c2ccccc2)n1,Clinical isolates,,8 µg/mL
CCCCCCCCNC1NCCC2c3ccc(OC)cc3CCN12,NFI2103,,32 µg/mL
CCCCCCCC[n+]1ccc(/C=C/C(=O)c2ccccc2OC)cc1,,,<8.12 µg/mL
CCn1c(-c2cc3ccccc3cc2O)n[nH]c1=S,ATCC 2091,,250 µg/mL
CCOC(=O)Cc1csc(NC(=O)CSc2nnc(C(C)Oc3ccccc3)n2-c2ccccc2)n1,NRRL Y-27077,,4 µg/mL
COc1ccccc1C(=O)/C=C/c1ccccn1,,,7.1 µg/mL
Cc1cc(COc2ccc(Oc3ccc(Cl)cc3)cc2)n(O)c(=O)c1,,,1–4 µg/mL
O=c1[nH]c2cc([N+](=O)[O-])ccc2nc1CBr,ATCC 90029,,8–62.5 µg/mL
Cc1nc(Cl)c2sc(=S)n(-c3ccccc3)c2n1,DSM 70443,,180 µg/mL
CC(C)=C[C@H]1C[C@](C)(O)C2C3CCC4[C@@]5(C)CCC[C@](C)(O[C@H]6OC[C@H](O)[C@H](OC7O[C@H](CO)[C@@H](O)[C@H](O)[C@H]7OC(=O)/C=C/c7ccc(OC(=O)CC(=O)O)cc7)[C@H]6O[C@H]6C[C@H](CO)[C@@H](O)[C@@H]6O)C5CC[C@@]4(C)[C@@]34CO[C@@]2(C4)O1,,,>50 µg/mL
Cc1ncc([N+](=O)[O-])n1CCN1C(=O)S/C(=C/c2ccc(Cl)cc2)C1=O,,,125 µg/mL
Clc1ccc(OCC(Cn2ccnc2)c2ccc(Cl)cc2Cl)c(Cl)c1,,,>100 µg/mL

A second listing of 6 rows from above:

structure	strain or isolate	method	value
COc1ccccc1/C=c1\c(=O)[nH][nH]\c1=C1/C(=O)c2ccccc2N(C)C1=O	ATCC 10231		>100 µg/mL
CCOC(=O)c1csc(NC(=O)CSc2nnc(C(C)Oc3ccc(C)cc3)n2-c2ccccc2)n1	Clinical isolates		16 µg/mL
COc1cccc(C(=O)/C=C/c2cccnc2)c1			37.8 µg/mL
O=c1[nH]c2cc([N+](=O)[O-])ccc2nc1CBr	ATCC 90029		8–62.5 µg/mL
CCCCCCCCCCCC[n+]1cccc(/C=C/C(=O)c2cccc(OC)c2)c1			<6.8 µg/mL
Cn1c(=O)c(-c2[nH][nH]c(=O)c2C=Nc2cccnc2)c(O)c2ccccc21	ATCC 10231		25 µg/mL